Pooled drug test results. Numbers come from NIAID ChemDB, via PubChem.

Shared fields: cytotoxicity tests; cells: HeLa; read-out: CC50

Neighbouring rows are from separate reports. Blank or dashed fields: not listed here. CCn is the concentration with n% toxicity to the cells.

compound,read by,value
COc1cc2c(cc1OC)C1=C(c3ccc(OC)c(OS(=O)(=O)O)c3)C3c4cc(OC)c(OS(=O)(=O)O)cc4OC(=O)C3N1C=C2,MTT,29 µM
O=c1c(Cc2ccc(Cl)cc2)coc2ccccc12,,50 µM
COc1ccccc1NC(=O)c1ccccc1C(O)c1cccc([N+](=O)[O-])c1,MTT,>100 µM
O=C(OCC1CCCCC1)c1nc(-c2ccccn2)[nH]c(=O)c1O,luminescence,>50 µM
CCOC(=O)CN1CCN(c2cc(=O)n(O)c3ncccc23)CC1,,<100 µM
COc1ccnc2[nH]cc(C(=O)C(=O)N3CCN(C(=O)c4ccccc4)C[C@H]3C)c12,XTT,>100 µM
CC1(C)[C@@H](CO)CC[C@@]1(C)Cn1cc(I)c(=O)[nH]c1=O,,>400 µg/mL
CCS(=O)(=O)c1ccc(NCc2ccc(Cl)c(Cl)c2)nc1C#N,,>10 µg/mL
O=C1Oc2cc(O)c(O)cc2C2C(c3ccc(O)c(O)c3)=C3c4cc(O)c(O)cc4C=CN3C12,MTT,5.7 µM
O=C1/C(=C/c2ccccc2)COc2ccccc21,,6.25 µM
CCOC(=O)c1c(O)c2cccnc2n(O)c1=O,,<100 µM
O=C1c2ccccc2OCC1Cc1ccccc1,,6.25 µM
CS(=O)(=O)c1ccc(Cc2ccc(Cl)c(Cl)c2)nc1,,>10 µg/mL
COc1ccc(/C=C2\COc3cc(OC)cc(OC)c3C2=O)cc1,,1.56 µM
COc1ccccc1C(=O)Nc1ccccc1C(O)c1ccc([N+](=O)[O-])cc1,MTT,>100 µM
Fc1cccc2c1CSSC2,MTT,284 µM
CCC(C)Sc1n[nH]c(-c2ccc(C)cc2)n1,MTT,19.92 µg/mL
C[C@@H](Nc1cc(=O)n(O)c2ncccc12)c1ccccc1,,0.16 µM
CC1(C)O[C@@H]2[C@H](O1)[C@@H](COS(=O)(=O)NC(=O)OC1O[C@H](CO)[C@@H](O)[C@H](O)[C@H]1O)O[C@H]2n1ccc(=O)[nH]c1=O,,>220 µM
O=C(NCC1CC1)c1nc(-c2ccccn2)[nH]c(=O)c1O,luminescence,>50 µM
Cc1cccc(-c2nc(=S)[nH][nH]2)c1,MTT,21.11 µg/mL
CC(OC(=O)c1nc(-c2ccccn2)[nH]c(=O)c1O)C1CCCCC1,luminescence,>50 µM
CN(C)c1ccc(Cc2ccc(S(C)(=O)=O)cn2)cc1,,>10 µg/mL
O=C1c2c(Cl)cc(Cl)cc2OCC1Cc1ccc(Cl)cc1,,<6.25 µM
O=[N+]([O-])c1ccc(-c2nc(=S)[nH][nH]2)cc1,MTT,40.29 µg/mL
O=C1c2ccccc2OCC1Cc1ccc(Cl)cc1,,6.25 µM
CC(=O)OC[C@H]1OC(OC(=O)NS(=O)(=O)OC[C@H]2O[C@@H](n3ccc(=O)[nH]c3=O)[C@@H]3OC(C)(C)O[C@@H]32)[C@H](OC(C)=O)[C@@H](OC(C)=O)[C@@H]1OC(C)=O,,360 µM
CC1=C(C(=O)O)C(c2ccc(N)cc2)NC(=O)N1,XTT,>100 µM
COC(=O)c1ccc(C(O)c2ccccc2NC(=O)c2ccccc2OC)cc1,MTT,>100 µM
CC1(C)[C@@H](CO)CC[C@@]1(C)Cn1nnc2c(=O)[nH]cnc21,,>400 µg/mL
CN(C)c1ccc2c(c1)CSSC2,MTT,>473.1 µM
CCOC(=O)c1c(O)c2cc(C(=O)N3CCC(Cc4ccccc4)C3)cnc2n(O)c1=O,,<100 µM
CC1=C(C(=O)O)C(c2ccco2)NC(=O)N1,XTT,>100 µM
CCn1cc(C(=O)O)c(=O)c2ccc(C)nc21,,188 µg/mL
CC1(C)[C@@H](CO)CC[C@@]1(C)Cn1ccc(=O)[nH]c1=O,,>400 µg/mL
C[C@@H](NC(=O)c1nc(-c2cccc(C(F)(F)F)n2)[nH]c(=O)c1O)C1CCCCC1,luminescence,>50 µM
C#CCS(=O)(=O)c1nc(-c2ccc([N+](=O)[O-])c(C(F)(F)F)c2)n[nH]1,MTT,8.5 µg/mL
C[C@@H](NC(=O)c1nc(-c2ncccc2C(F)(F)F)[nH]c(=O)c1O)C1CCCCC1,luminescence,>50 µM
CC(C)(C)NC(=O)c1cccc(-c2cc(=O)n(O)c3ncccc23)c1,,<100 µM
Nc1ccc2c(c1)CSSC2,MTT,177.9 µM
CC1=C(C(=O)OCc2ccccc2)C(c2ccc(F)cc2)NC(=O)N1,XTT,>100 µM
COc1ccc2c(c1)CSSC2,MTT,48.9 µM
O=C(OCCC1CCCCC1)c1nc(-c2ccccn2)[nH]c(=O)c1O,luminescence,>50 µM
CC1=C(C(=O)OCc2ccccc2)C(c2ccc([N+](=O)[O-])cc2)NC(=O)N1,XTT,>100 µM

A second listing of 7 rows from above:

compound,read by,value
CC1(C)[C@@H](CO)CC[C@@]1(C)Cn1nnc2c(=O)[nH]cnc21,,>400 µg/mL
CC1(C)O[C@@H]2[C@H](O1)[C@@H](COS(=O)(=O)NC(=O)OC1O[C@H](CO)[C@@H](O)[C@H](O)[C@H]1O)O[C@H]2n1ccc(=O)[nH]c1=O,,>220 µM
CN(C)c1ccc(Cc2ccc(S(C)(=O)=O)cn2)cc1,,>10 µg/mL
CC(=O)OC[C@H]1OC(OC(=O)NS(=O)(=O)OC[C@H]2O[C@@H](n3ccc(=O)[nH]c3=O)[C@@H]3OC(C)(C)O[C@@H]32)[C@H](OC(C)=O)[C@@H](OC(C)=O)[C@@H]1OC(C)=O,,360 µM
CCOC(=O)c1c(O)c2cccnc2n(O)c1=O,,<100 µM
O=C1Oc2cc(O)c(O)cc2C2C(c3ccc(O)c(O)c3)=C3c4cc(O)c(O)cc4C=CN3C12,MTT,5.7 µM
C#CCS(=O)(=O)c1nc(-c2ccc([N+](=O)[O-])c(C(F)(F)F)c2)n[nH]1,MTT,8.5 µg/mL